Results as given in the supplement of paper PMC9931576.
Human monoclonal antibodies against the spike receptor-binding domain (heavy:light variable regions). IC50 against pseudoviruses bearing the spike of naturally observed variants; lower = stronger; >10 µg/ml means not reached at the top dose. No active / inactive call. The stated detection limit is 0.0005 µg/ml; values near or below 0.001 µg/ml lie at the floor of the assay.

B1: BD58-0537 (protein)
chain 1: QLQLQESGPGLVKPSETLSLTCNVSGGSINNKNCYWGWIRQPPGKGLEWTGSVYYSGYTYYNPSLKSRVTISVDTSKNQFSLKLSSVTAADTAVYYCVANSGSYEDFHHYYAMDVWGQGTTVTVSS
chain 2: QSVLTQPPSVSGAPGQRVTISCTGSSSNIGAGYDVHWYQQLPGTAPKLLIYDNINRPSGVPDRFSGSKSATSASLAITGLQAEDEADYYCQSYDSSLSGSVFGGGTKLTVL
B2: BD58-0540 (protein)
chain 1: QVQLQESGPRLVKPSETLSLTCTVSGDSISGYYWSWIRQPPGKGLEWIGYIYVSGSADYNPSLNSRVTISVDTSKNQFSLKLISVTAADTAVYYCAKGNNGGDWFDPWGQGTLVTVSS
chain 2: DIVMTQSPDSLAVSLGERATINCKSSQSVLYSSNNQNYLVWYQQKPGQPPKLLIYWASTRESGVPDRFSGSGSGTDFTLTISSLQAEDVAVYYCQQYYSTPLTFGGGTKVEIK
B3: BD58-0542 (protein)
chain 1: QVTLRESGPALVKPTETLTLTCTFSGFSLSTSAMCVSWIRQPPGKALEWLARIDWEDDKYYSSSLKTRLTISKDTSKNQVFLTMTNMDPVDTATYYCARSGSGNYEDAFDVWGQGTMVTVSS
chain 2: SYELTQPPSLSVSPGQTAKITCSGDTLPNQFAYWYQQKPGQAPVMVIYKDTERPSGIPERFSGSSSGTSVTLIISGVQAEDEADYYCQSSDSRGSYRVILGGGTKLTVL
B4: BD58-0543 (protein)
chain 1: EVQLAQSGAELKKPGATVKISCKVSGYTLADYYIHWIQQAPGRGLEWTALIDPENGQTLSTEKFQGRLTISADTSTDTIYMELSRLRSEDTAFYFCAIASRPFSSGGYRPEYYHLWGQGTLVTVSS
chain 2: DIQVTQSPSSLSASIGDRVTITCRASQPINDYLNWYQQKPGKAPKLLIYAASTLQSGVPSRFSGSGSGTDFTLTISSLQPDDFATYYCQQTFITPPYTFGQGTKLEIQ
B5: BD58-0544 (protein)
chain 1: EVQLVESGGGLIQPGGSLRLSCAASGFPVSSNYMTWVRQAPGRGLQWVSLIYSGGSTYYADSVKGRFTISRDNSKNTLYLQMNSLRAEDTAMYYCARDLGPYGMDVWGQGTTVTVSS
chain 2: SYVLTQPPSMSVAPGKPARITCGGDNIGGNSVNWYQQKPGQAPVLVVYDDSDRPSGIPERFSGSNSGNTATLTISRVEVGDEADYYCQVWDSSSDHPEVFGTGTKVTVL
B6: BD58-0552 (protein)
chain 1: QITLKESGPTLVKPTETLTLTCTFPGVSLSTSGVGVGWIRQPPGKALEWLALIYWDDDKVYSPSLKSRLTITKETSKNQVVLRMTNMEPVDTATYYCGYFPDSYLALDFDYWGQGTLVTVSS
chain 2: QSVLTQPPSVSEAPRQRVTISCSGSSSNIGNNAVNWYQQLPGKAPKLLIYYDDLLPSGVSDRFSGSKSGTSASLAISGLQSEDETDYYCAAWDDSLNAWVFGGGTKLTVL
B7: BD58-0554 (protein)
chain 1: QVQLVQSGAEVKKPGASVKVSCKASGYTFTTYFIHWVRQAPGQGLDWMGWIDPYSGDTHFAQKFQGRVTMTRDTSIDTAYMELSSLRSDDTAVYYCARGGLFGVAAAGSFYYMDVWDKGTTVTVSS
chain 2: EIVLTQSPGTLSLSPGERATLSCRASQSVSGNNLAWYQQKVGQAPRLLMYGASSRAPGITDRFSGSGSGTDFTLTISRLEPEDFALYYCQQYGSSPLTFGGGTKVEIK
B8: BD56-1185 (protein)
chain 1: EVQLVESGGGLVQPGRSLRLSCAASGFTFDDYDMNWVRQAPGKGLEWVSIISWDSGSIAYADSVKGRFTISRDNAKNSLYLQMNSLRTEDTALYYCAKDSAPLTGTTSLGYWGQGTLVTVSS
chain 2: QPVLTQPPSASASLGASVTLTCTLSSGYNNYKVDWYQQRPGKGPRFVMRVGPGGIVGSKGDGIPDRFSVLGSGLNRYLTIKNIHEEDESDYHCGADHGSGSNFVWVFGGGTKLTVL
B9: BD56-1200 (protein)
chain 1: QVQLQESGPGLVKPSETLSLTCTVSGGSISSYYWSWIRQPAGKGLEWIGRIYTSGSTNYNPSLKSRVTMSVDTSKNQFSLILSSVTAADAAVYYCAREPPVWYDNSDYYPHVFDPWGQGTLVTVSS
chain 2: QSALTQPRSVSGSPGQSVTISCTGTSSDVGGYNYVSWYQQHPGKAPKLMIYDVSKRPSGVPDRFSGSKSGNTASLTISGLQAEDEADYYCCSYAGSYTFRVVFGGGTKLTVL
B10: BD56-1207 (protein)
chain 1: EVQLVESGGGLVQPGGSLRLSCAASEFSFTSYWMSWVRQAPGKGLEWVANINEDGSEKYYVDSVKGRFTISRDNAKNSLYLQMNSLRAEDTAVYYCARVSYQLLSSRYPAFHYYYFYYMDVWGKGTTVTVSS
chain 2: SSELTQDPAVSVALGQTVRITCQGDSLRSYYASWYQQKPGQAPLLVIYGENNRPSGIPDRFSGSSSGGTASLTITGAQAEDEADYYCNSRDTSGDSVLFGGGTKLTVL

Molecular target: SARS-CoV-2 Omicron BA.1 spike pseudovirus
Assay: pseudovirus neutralization IC50; higher = weaker neutralization
Experimental: (§1)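 Single-round VSV luciferase pseudovirus mixed with antibody dilutions for 1 h and put on Huh-7 cells for about a day; IC50 from the dose curve.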

Point of comparison: B10, “pseudovirus neutralization IC50” value 0.00244 µg/mL. Against it:
- B1 — 33-fold higher, 0.0804 µg/mL
- B2 — 1.6-fold lower, 0.00154 µg/mL
- B3 — higher, > 10 µg/mL
- B4 — higher, > 10 µg/mL
- B5 — within 1.5-fold, 0.00199 µg/mL
- B6 — 1.7-fold lower, 0.0014 µg/mL
- B7 — 9.7-fold higher, 0.0237 µg/mL
- B8 — within 1.5-fold, 0.00275 µg/mL
- B9 — 7.7-fold higher, 0.0189 µg/mL

Molecular target: SARS-CoV-2 Omicron BA.2 spike pseudovirus
Assay: as above
Experimental: as §1

Point of comparison: B10, “pseudovirus neutralization IC50” value 0.00182 µg/mL. Against it:
- B1 — 1.6-fold lower, 0.00112 µg/mL
- B2 — 380-fold higher, 0.689 µg/mL
- B3 — 430-fold higher, 0.782 µg/mL
- B4 — 280-fold higher, 0.513 µg/mL
- B5 — 2.6-fold lower, 0.000697 µg/mL
- B6 — 5.7-fold lower, 0.00032 µg/mL
- B7 — 6.9-fold higher, 0.0125 µg/mL
- B8 — 1.5-fold higher, 0.00281 µg/mL
- B9 — 10-fold higher, 0.0184 µg/mL

Molecular target: SARS-CoV-2 Omicron BA.2.75 spike pseudovirus
Assay: as above
Experimental: as §1

Point of comparison: B7, “pseudovirus neutralization IC50” value 0.205 µg/mL. Against it:
- B1 — 14-fold lower, 0.0149 µg/mL
- B2 — higher, > 10 µg/mL
- B3 — higher, > 10 µg/mL
- B4 — higher, > 10 µg/mL
- B5 — 16-fold higher, 3.37 µg/mL
- B6 — 500-fold lower, 0.000407 µg/mL
- B8 — higher, > 10 µg/mL
- B9 — higher, > 10 µg/mL
- B10 — 160-fold lower, 0.00125 µg/mL

Molecular target: SARS-CoV-2 Omicron BA.2.75.2 spike pseudovirus
Assay: as above
Experimental: as §1

Point of comparison: B1, “pseudovirus neutralization IC50” value 0.0177 µg/mL. Against it:
- B2 — higher, > 10 µg/mL
- B3 — higher, > 10 µg/mL
- B4 — higher, > 10 µg/mL
- B5 — higher, > 10 µg/mL
- B6 — 7.6-fold lower, 0.00233 µg/mL
- B7 — higher, > 10 µg/mL
- B8 — higher, > 10 µg/mL
- B9 — higher, > 10 µg/mL
- B10 — higher, > 10 µg/mL

Molecular target: SARS-CoV-2 Omicron BA.5 spike pseudovirus
Assay: as above
Experimental: as §1

Point of comparison: B8, “pseudovirus neutralization IC50” value 2.19 µg/mL. Against it:
- B1 — 580-fold lower, 0.00375 µg/mL
- B2 — higher, > 10 µg/mL
- B3 — higher, > 10 µg/mL
- B4 — higher, > 10 µg/mL
- B5 — 33-fold lower, 0.0667 µg/mL
- B6 — 1000-fold lower, 0.00216 µg/mL
- B7 — higher, > 10 µg/mL
- B9 — higher, > 10 µg/mL
- B10 — higher, > 10 µg/mL

Molecular target: SARS-CoV-2 Omicron BM.1.1.1 spike pseudovirus
Assay: as above
Experimental: as §1

Point of comparison: B6, “pseudovirus neutralization IC50” value 0.00391 µg/mL. Against it:
- B1 — 4.1-fold higher, 0.0161 µg/mL
- B2 — higher, > 10 µg/mL
- B3 — higher, > 10 µg/mL
- B4 — higher, > 10 µg/mL
- B5 — higher, > 10 µg/mL
- B7 — higher, > 10 µg/mL
- B8 — higher, > 10 µg/mL
- B9 — higher, > 10 µg/mL
- B10 — higher, > 10 µg/mL

Molecular target: SARS-CoV-2 Omicron BQ.1.1 spike pseudovirus
Assay: as above
Experimental: as §1

Point of comparison: B1, “pseudovirus neutralization IC50” value 0.0114 µg/mL. Against it:
- B2 — higher, > 10 µg/mL
- B3 — higher, > 10 µg/mL
- B4 — higher, > 10 µg/mL
- B5 — higher, > 10 µg/mL
- B6 — higher, > 10 µg/mL
- B7 — higher, > 10 µg/mL
- B8 — higher, > 10 µg/mL
- B9 — higher, > 10 µg/mL
- B10 — higher, > 10 µg/mL

Molecular target: SARS-CoV-2 Omicron BR.2 spike pseudovirus
Assay: as above
Experimental: as §1

Point of comparison: B1, “pseudovirus neutralization IC50” value 0.016 µg/mL. Against it:
- B2 — higher, > 10 µg/mL
- B3 — higher, > 10 µg/mL
- B4 — higher, > 10 µg/mL
- B5 — higher, > 10 µg/mL
- B6 — 3.4-fold lower, 0.00471 µg/mL
- B7 — higher, > 10 µg/mL
- B8 — higher, > 10 µg/mL
- B9 — higher, > 10 µg/mL
- B10 — higher, > 10 µg/mL

Molecular target: SARS-CoV-2 Omicron CA.1 spike pseudovirus
Assay: as above
Experimental: as §1

Point of comparison: B1, “pseudovirus neutralization IC50” value 0.0128 µg/mL. Against it:
- B2 — higher, > 10 µg/mL
- B3 — higher, > 10 µg/mL
- B4 — higher, > 10 µg/mL
- B5 — higher, > 10 µg/mL
- B6 — 7.4-fold lower, 0.00172 µg/mL
- B7 — higher, > 10 µg/mL
- B8 — higher, > 10 µg/mL
- B9 — higher, > 10 µg/mL
- B10 — higher, > 10 µg/mL

Molecular target: SARS-CoV-2 Omicron XBB spike pseudovirus
Assay: as above
Experimental: as §1

Point of comparison: B1, “pseudovirus neutralization IC50” value 0.0117 µg/mL. Against it:
- B2 — higher, > 10 µg/mL
- B3 — higher, > 10 µg/mL
- B4 — higher, > 10 µg/mL
- B5 — higher, > 10 µg/mL
- B6 — 4.2-fold lower, 0.00281 µg/mL
- B7 — higher, > 10 µg/mL
- B8 — higher, > 10 µg/mL
- B9 — higher, > 10 µg/mL
- B10 — higher, > 10 µg/mL

Molecular target: SARS-CoV-2 early D614G spike pseudovirus
Assay: as above
Experimental: as §1

B1 and B2 cannot be ordered by “pseudovirus neutralization IC50” value: over 10 µg/mL for the first, over 10 µg/mL for the second.

B3 and B4 cannot be ordered by “pseudovirus neutralization IC50” value: over 10 µg/mL for the first, over 10 µg/mL for the second.

B5 and B6 cannot be ordered by “pseudovirus neutralization IC50” value: over 10 µg/mL for the first, over 10 µg/mL for the second.

B7 and B8 cannot be ordered by “pseudovirus neutralization IC50” value: over 10 µg/mL for the first, over 10 µg/mL for the second.

B9 and B10 cannot be ordered by “pseudovirus neutralization IC50” value: over 10 µg/mL for the first, over 10 µg/mL for the second.
